Results of unrelated studies side by side (data: NIAID ChemDB).

Common to all: tests in culture; organism: Candida albicans; endpoint: zone

Rows are shuffled and stem from different studies.

smiles,method,strain,dose,result
Fc1ccc2c(c1)Sc1cccnc1N2CCCCN1c2ccc(F)cc2Sc2cccnc21,-,MTCC 227,100 µg/mL,10 mm
Cc1ccccc1NC(=O)NCCn1c(-c2ccccc2)nc2ccc([N+](=O)[O-])cc2c1=O,broth dilution / agar diffusion,ATCC 66027,100 µg/mL,16 mm
C[C@@H]1[C@@H](COCC(=O)O)C[C@@H](O[C@H]2[C@H](O)[C@@H](N(Cc3cccc(Br)c3)CC(O)C[N+](C)(C)C)[C@H](O[C@H]3[C@H](O)[C@@H](N(Cc4cccc(Br)c4)CC(O)C[N+](C)(C)C)[C@H](C)O[C@@H]3COCC(=O)O)O[C@@H]2COCC(=O)O)[C@H](N(Cc2cccc(Br)c2)CC(O)C[N+](C)(C)C)[C@H]1O,agar diffusion,RCMB 05031,1 mg/mL,23.4 mm
CC(=O)Nc1ccc(F)cc1Sc1ncccc1[N+](=O)[O-],-,MTCC 227,100 µg/mL,14 mm
O=[N+]([O-])c1ccc2c(c1)nc(C(F)(F)F)n2CCCCCl,-,MTCC 227,500 µg/mL,500 mm
CC(=O)N1N=C(c2sc3ccccc3c2Cl)OC1c1ccccc1Cl,-,-,5 µg/disc,10 mm
COc1cc(CN(CC(O)C[N+](C)(C)C)[C@@H]2[C@@H](O)[C@H](O[C@@H]3O[C@H](COCC(=O)O)[C@@H](O[C@@H]4C[C@H](COCC(=O)O)[C@@H](C)[C@H](O)[C@H]4N(Cc4ccc(O)c(OC)c4)CC(O)C[N+](C)(C)C)[C@H](O)[C@H]3N(Cc3ccc(O)c(OC)c3)CC(O)C[N+](C)(C)C)[C@@H](COCC(=O)O)O[C@H]2C)ccc1O,agar diffusion,RCMB 05031,1 mg/mL,15 mm
C#CCn1c(C(F)(F)F)nc2ccc([N+](=O)[O-])cc21,-,MTCC 227,500 µg/mL,600 mm
Brc1ccc2c(c1)Sc1cccnc1N2C/C=C/CN1c2ccc(Br)cc2Sc2cccnc21,-,MTCC 227,100 µg/mL,10 mm
Cc1ccc(S(=O)(=O)CNc2oc3[nH]c(=O)[nH]c(=O)c3c2-c2ccsc2C=O)cc1,agar diffusion / agar,-,100 µg/mL,3 mm
CCOC(=O)Cn1c(C(F)(F)C(F)(F)F)nc2cc(C(=O)c3ccccc3)ccc21,-,MTCC 227,500 µg/mL,700 mm
Cc1cc(C)cc(Nc2ccc(N)c3nc[nH]c(=O)c23)c1,agar diffusion,ATCC 10231,1000 µg/mL,0 mm
O=C1NC(=O)C(Cc2nc3ccccc3s2)S1,-,-,20000 µg/mL,11 mm
COC(=O)N[C@H](C(=O)NN(CC[C@]1(Cc2ccccc2)C(=O)N(C2c3ccccc3C[C@H]2O)C[C@@H]1O)Cc1ccc(Br)cc1)C(C)(C)C,agar diffusion / agar,-,10 mg/mL,12.8 mm
C/C=C/C1=CC2=CC(=O)[C@](C)(OC(=O)c3c(C)cc(O)c(O)c3OC)C(=O)C2=CO1,agar diffusion,ATCC 64548,50 µg/disc,0 mm
COc1ccc(-c2nn(-c3ccccc3)cc2C2CC(c3ccc(Cl)cc3Cl)=NN2c2ccccc2)cc1,-,MTCC 227,500 µg/mL,0 mm
CCN1CCN(Cn2nc(C34CC5CC(CC(C5)C3)C4)n(/N=C/c3c(Cl)cccc3Cl)c2=S)CC1,agar diffusion,IFO 3007,200 µg/disc,<10 mm
Cc1c(Cc2ccc(Cl)cc2)nc(SCCN2CCOCC2)[nH]c1=O,agar diffusion / agar,ATCC 10231,200 µg/disc,<10 mm
CC(C)(C)c1cc(-c2nnc(CN3CCC(n4nc5ccccc5n4)CC3)o2)cc(C(C)(C)C)c1,-,-,300 µg/mL,3.97 mm
Clc1ccc(-c2nnc(-c3sc4ccccc4c3Cl)o2)cc1,-,-,5 µg/disc,10 mm
COC(=O)N[C@H](C(=O)NN(CCC[C@@]1(Cc2ccccc2)C(=O)N(C2c3ccccc3C[C@H]2O)C[C@H]1O)Cc1ccc(-c2ccccn2)cc1)C(C)(C)C,agar diffusion / agar,-,10 mg/mL,12.8 mm
Clc1ccccc1C(c1ccccc1)(c1ccccc1)n1ccnc1,agar,-,25 µg/mL,45 mm
NNc1ncnc2c1cc(-c1ccccc1)n2-c1ccccc1,agar diffusion / agar,10145,5 mg/mL,15 mm
CCOC(=O)Cn1c(C(F)(F)C(F)(F)F)nc2ccc(C(=O)c3ccccc3)cc21,-,MTCC 227,500 µg/mL,700 mm
Cc1ccc(S(=O)(=O)CNc2oc3[nH]c(=O)[nH]c(=O)c3c2-c2ccc(O)cc2)cc1,agar diffusion / agar,-,100 µg/mL,2 mm
COc1cccc(C2OC(c3sc4ccccc4c3Cl)=NN2C(C)=O)c1,-,-,5 µg/disc,9 mm
COc1cccc(-c2nnc(CN3CCC(n4nc5ccccc5n4)CC3)o2)c1,-,-,300 µg/mL,2.25 mm
COc1ccc(C2OC(c3sc4ccccc4c3Cl)=NN2C(C)=O)cc1,-,-,5 µg/disc,10 mm
CCOC(=O)Cn1c(C(F)(F)C(F)(F)F)nc2ccc([N+](=O)[O-])cc21,-,MTCC 227,500 µg/mL,900 mm
COc1ccccc1N1CCN(Cn2nc(C34CC5CC(CC(C5)C3)C4)n(/N=C/c3c(F)cccc3F)c2=S)CC1,agar diffusion,IFO 3007,200 µg/disc,<10 mm
Cc1ccc(S(=O)(=O)CNc2oc3[nH]c(=O)[nH]c(=O)c3c2-c2ccc(Cl)cc2)cc1,agar diffusion / agar,-,100 µg/mL,0 mm
C#CCn1c(C(F)(F)F)nc2cc([N+](=O)[O-])ccc21,-,MTCC 227,500 µg/mL,700 mm
Clc1c(-c2nnc(-c3ccccc3)o2)sc2ccccc12,-,-,5 µg/disc,11 mm
Brc1ccc(-c2nn(-c3ccccc3)cc2C2CC(c3ccc(-c4ccccc4)cc3)=NN2c2ccccc2)cc1,-,MTCC 227,1000 µg/mL,5 mm
CC(=O)Nc1ccccc1Sc1ncccc1[N+](=O)[O-],-,MTCC 227,100 µg/mL,12 mm
CC1(C)CC(N2C(=N)C(=S)N(c3ccc(Cl)cc3)C2=O)CC(C)(CN2C(=N)C(=S)N(c3ccc(Cl)cc3)C2=O)C1,agar diffusion / agar,-,100000 µM,22 mm
CCc1c(Cc2ccc(Cl)cc2)nc(SCCN2C(=O)c3ccccc3C2=O)[nH]c1=O,agar diffusion / agar,ATCC 10231,200 µg/disc,12 mm
C[C@@H]1[C@H](O)[C@@H](C)/C=C/C=C/C=C/C=C/C=C/C=C/C=C/[C@H](O[C@@H]2O[C@H](C)[C@@H](O)[C@H](N)[C@@H]2O)C[C@@H]2O[C@](O)(C[C@@H](O)C[C@@H](O)[C@H](O)CC[C@@H](O)C[C@@H](O)CC(=O)O[C@H]1C)C[C@H](O)[C@H]2C(=O)O,agar diffusion / agar,-,30 µg/disc,19 mm
N=C1C(=S)N(c2ccccc2)C(=O)N1CCCCCCN1C(=N)C(=S)N(c2ccccc2)C1=O,agar diffusion / agar,-,100000 µM,20 mm
Cc1c(Cc2ccc(Cl)cc2)nc(SCCCN2C(=O)c3ccccc3C2=O)[nH]c1=O,agar diffusion / agar,ATCC 10231,200 µg/disc,13 mm
C[C@H]1[C@H](O)[C@@H](C)/C=C/C=C/C=C/C=C/C=C/C=C/C=C/[C@H](O[C@@H]2O[C@H](C)[C@@H](O)[C@H](N)[C@@H]2O)C[C@@H]2O[C@](O)(C[C@@H](O)C[C@@H](O)CC[C@H](O)[C@@H](O)C[C@@H](O)CC(=O)O[C@H]1C)C[C@H](O)[C@H]2C(=O)O,-,-,20000 µg/mL,19 mm
CCN(CC)CCSc1nc(Cc2ccc(Cl)cc2)c(C)c(=O)[nH]1,agar diffusion / agar,ATCC 10231,200 µg/disc,<10 mm
Cc1ccc(N2C(=O)N(c3ccc(Oc4ccc(N5C(=N)C(=S)N(c6ccc(C)cc6)C5=O)cc4)cc3)C(=N)C2=S)cc1,agar diffusion / agar,-,100000 µM,21 mm
CC(=O)c1cc(C2OC(c3sc4ccccc4c3Cl)=NN2C(C)=O)ccc1O,-,-,5 µg/disc,9 mm
Clc1ccc(C2=NN(c3ccccc3)C(c3cn(-c4ccccc4)nc3-c3ccc(Br)cc3)C2)c(Cl)c1,-,MTCC 227,500 µg/mL,1 mm
Cc1c(Cc2ccc(Cl)cc2)nc(SCCN2CCCC2)[nH]c1=O,agar diffusion / agar,ATCC 10231,200 µg/disc,13 mm
O=C(NCCn1c(-c2ccccc2)nc2ccc([N+](=O)[O-])cc2c1=O)Nc1cc(C(F)(F)F)cc(C(F)(F)F)c1,broth dilution / agar diffusion,ATCC 66027,100 µg/mL,17 mm
S=c1[nH]nc(C23CC4CC(CC(C4)C2)C3)n1/N=C/c1ccc(Cl)cc1,agar diffusion,IFO 3007,200 µg/disc,<10 mm
CCOC(=O)Cn1c(C(F)(F)F)nc2cc([N+](=O)[O-])ccc21,-,MTCC 227,500 µg/mL,400 mm
CCOC(=O)C1CCN(Cn2nc(C34CC5CC(CC(C5)C3)C4)n(/N=C/c3ccccc3F)c2=S)CC1,agar diffusion,IFO 3007,200 µg/disc,<10 mm
O=C(CC1SC(=O)NC1=O)Nc1ccccc1C(=O)O,-,-,20000 µg/mL,9 mm
CC(=O)c1cc(-c2nnc(-c3sc4ccccc4c3Cl)o2)ccc1O,-,-,5 µg/disc,10 mm
Nc1ccc(Nc2ccccc2)c2c(=O)[nH]cnc12,agar diffusion,ATCC 10231,1000 µg/mL,0 mm
S=c1[nH]nc(C23CC4CC(CC(C4)C2)C3)n1/N=C/c1c(Cl)cccc1Cl,agar diffusion,IFO 3007,200 µg/disc,<10 mm
N=C1C(=S)N(c2ccc(I)cc2)C(=O)N1CCCCCCN1C(=N)C(=S)N(c2ccc(I)cc2)C1=O,agar diffusion / agar,-,100000 µM,21 mm
CCOC(=O)Cn1c(C(F)(F)F)nc2ccc([N+](=O)[O-])cc21,-,MTCC 227,500 µg/mL,450 mm
CCc1c(Cc2ccc(C)cc2)nc(SCCN2CCOCC2)[nH]c1=O,agar diffusion / agar,ATCC 10231,200 µg/disc,<10 mm
CC(=O)c1cccc(-c2nnc(-c3sc4ccccc4c3Cl)o2)c1,-,-,5 µg/disc,11 mm
Clc1ccc(-c2nn(-c3ccccc3)cc2C2CC(c3ccc(-c4ccccc4)cc3)=NN2c2ccccc2)cc1,-,MTCC 227,500 µg/mL,2 mm
COC(=O)N[C@H](C(=O)NN(CC[C@@]1(Cc2ccccc2)C(=O)N(C2c3ccccc3C[C@H]2O)C[C@@H]1O)Cc1ccc(-c2ccncc2)cc1)C(C)(C)C,agar diffusion / agar,-,10 mg/mL,12.8 mm
O=[N+]([O-])c1ccc2nc(C(F)(F)F)n(CCCCl)c2c1,-,MTCC 227,500 µg/mL,400 mm
OC(Cn1cncn1)(Cn1cncn1)c1ccc(F)cc1F,agar diffusion / agar,ATCC 60193,12.5 µg/mL,25 mm
Clc1ccc(COC(Cn2ccnc2)c2ccc(Cl)cc2Cl)c(Cl)c1,agar diffusion,-,100 µg/mL,19 mm
CCOC(=O)C1CCN(Cn2nc(C34CC5CC(CC(C5)C3)C4)n(/N=C/c3ccccc3O)c2=S)CC1,agar diffusion,IFO 3007,200 µg/disc,13 mm
O=C(NCCn1c(-c2ccccc2)nc2ccc([N+](=O)[O-])cc2c1=O)Nc1ccc(Cl)cc1,broth dilution / agar diffusion,ATCC 66027,100 µg/mL,15 mm
Cc1c(Br)cccc1-c1nnc(CN2CCC(n3nc4ccccc4n3)CC2)o1,-,-,900 µg/mL,9.36 mm
CN(C)c1ccc(N)c2nc[nH]c(=O)c12,agar diffusion,ATCC 10231,1000 µg/mL,0 mm
C[C@@H]1[C@@H](COCC(=O)O)C[C@@H](O[C@H]2[C@H](O)[C@@H](N(Cc3ccc(N(C)C)cc3)CC(O)C[N+](C)(C)C)[C@H](O[C@H]3[C@H](O)[C@@H](N(Cc4ccc(N(C)C)cc4)CC(O)C[N+](C)(C)C)[C@H](C)O[C@@H]3COCC(=O)O)O[C@@H]2COCC(=O)O)[C@H](N(Cc2ccc(N(C)C)cc2)CC(O)C[N+](C)(C)C)[C@H]1O,agar diffusion,RCMB 05031,1 mg/mL,20.1 mm
N=C1C(=S)N(c2ccccc2)C(=O)N1c1ccc(Oc2ccc(N3C(=N)C(=S)N(c4ccccc4)C3=O)cc2)cc1,agar diffusion / agar,-,100000 µM,27 mm
C[C@@H]1[C@@H](COCC(=O)O)C[C@@H](O[C@H]2[C@H](O)[C@@H](N(Cc3cccc(Cl)c3)CC(O)C[N+](C)(C)C)[C@H](O[C@H]3[C@H](O)[C@@H](N(Cc4cccc(Cl)c4)CC(O)C[N+](C)(C)C)[C@H](C)O[C@@H]3COCC(=O)O)O[C@@H]2COCC(=O)O)[C@H](N(Cc2cccc(Cl)c2)CC(O)C[N+](C)(C)C)[C@H]1O,agar diffusion,RCMB 05031,1 mg/mL,19.5 mm
C[C@H]1[C@H](O)[C@@H](C)/C=C/C=C/C=C/C=C/C=C/C=C/C=C/[C@H](O[C@@H]2O[C@H](C)[C@@H](O)[C@H](N)[C@@H]2O)C[C@@H]2O[C@](O)(C[C@@H](O)C[C@@H](O)CC[C@H](O)[C@@H](O)C[C@@H](O)CC(=O)O[C@H]1C)C[C@H](O)[C@H]2C(=O)O,agar diffusion,-,10 µg/mL,11 mm

Zone: diameter of growth inhibition. Blank or dashed fields: not listed here.